Pooled drug test results. Numbers come from NIAID ChemDB, via PubChem.

Common to all: tests in culture; organism: Candida albicans; endpoint: MIC

Blank or dashed fields: not listed here.

smiles | strain or isolate | read by | result
CN1CCC2=C(CCCC2CCc2ccc(Cl)cc2)C1 | 2402E | - | 8 µg/mL
Cc1c(N2CCC(N(C)C)C2)c(F)cn2c(=O)c(C(=O)O)cc(C3CC3)c12 | CCH442 | - | >100 µg/mL
COc1c2ccoc2c(OC)c2oc(=O)ccc12 | ATCC 14053 | - | 500 µg/mL
C=CC[C@@H]1/C=C(/C)C[C@H](C)C[C@H](OC)[C@H]2O[C@@](O)(C(=O)C(=O)N3CCCC[C@H]3C(=O)O[C@H](/C(C)=C/[C@@H]3CC[C@@H](O)[C@H](OC)C3)[C@H](C)[C@@H](O)CC1=O)[C@H](C)C[C@@H]2OC | SC5314 | - | >3.12 µg/mL
C=CCc1ccc(O)c(-c2ccc(O)c(CC=C)c2)c1 | YL 319 | broth dilution | 128 µg/mL
Clc1ccccc1CCC1CCCc2cnccc21 | C316 | - | >125 µg/mL
CCC(C)CC(C)CCCCCCCCC(=O)N[C@H]1C[C@@H](O)[C@@H](O)NC(=O)[C@@H]2[C@@H](O)CCN2C(=O)[C@H]([C@H](O)CC(N)=O)NC(=O)[C@H]([C@H](O)[C@@H](O)c2ccc(O)cc2)NC(=O)[C@@H]2C[C@@H](O)CN2C(=O)[C@H]([C@@H](C)O)NC1=O | - | - | <0.01 µg/mL
Cc1c(N2C[C@@H]3CCN[C@@H]3C2)c(F)cn2c(=O)c(C(=O)O)cc(C3CC3)c12 | CCH442 | - | 3.1 µg/mL
COc1cc2ccc(=O)oc2cc1OC/C=C(\C)CCC=C(C)C | ATCC 14053 | - | 500 µg/mL
CN1CCC2=C(CCCC2CCc2c(Cl)cccc2Cl)C1 | 1208E | - | 125 µg/mL
Cc1c(N2CCCC(CF)C2)c(F)cn2c(=O)c(C(=O)O)cc(C3CC3)c12 | CCH442 | - | >100 µg/mL
C[C@@H](c1nc(-c2ccc(C#N)cc2)cs1)[C@](O)(Cn1cnnc1)c1ccc(F)cc1F | Isogenic isolate 5 MDR1 (25X) | - | ≤0.008 µg/mL
CC[C@H]1OC(=O)C=C2C1=CC1OC(=O)[C@@]3(C)CCC[C@@]2(C)[C@@H]13 | 1463D | - | 8 µg/mL
Cc1c(NCCN)c(F)cn2c(=O)c(C(=O)O)cc(C3CC3)c12.Cl | CCH442 | - | >100 µg/mL
CC1=C(N2CCC3CC(N)CCC32)C(F)=CN2C(=O)C(C(=O)O)=CC(C3CC3)C12 | CCH442 | - | <100 µg/mL
Cc1c(N2C[C@@H](N)[C@@H](C)C2)c(F)cn2c(=O)c(C(=O)O)cc(C3CC3)c12 | CCH442 | - | >100 µg/mL
Cc1c(N2CC[C@@H](N(C)C)C2)c(F)cn2c(=O)c(C(=O)O)cc(C3CC3)c12 | CCH442 | - | >100 µg/mL
CN1CCC2=C(CCCC2CCc2ccccc2)C1 | C316 | - | 31 µg/mL
CC[C@H]1OC(=O)C=C2[C@@]13O[C@@H]3C1OC(=O)[C@@]3(C)CCC[C@@]2(C)[C@@H]13 | ATCC 90028 | - | 16 µg/mL
COc1ccc(CCC2CCCc3cnccc32)cc1 | C316 | - | 125 µg/mL
Cc1c(N2CC3CCC(C)(NC(=O)[C@H](C)N)C3C2)c(F)cn2c(=O)c(C(=O)O)cc(C3CC3)c12.Cl | CCH442 | - | >100 µg/mL
Cc1cnccc1CCCc1ccccc1 | 2005E | - | 8 µg/mL
Cc1c(N2CCN(C)CC2)c(F)cn2c(=O)c(C(=O)O)cc(C3CC3)c12 | CCH442 | - | >100 µg/mL
O=c1ccc2ccc(Cl)cc2o1 | ATCC 14053 | - | 500 µg/mL
COc1cccc(CCC2CCCC3=C2CCN(C)C3)c1 | C316 | - | 62 µg/mL
Cc1c(N2CCC3CCCC3C2)c(F)cn2c(=O)c(C(=O)O)cc(C3CC3)c12 | CCH442 | - | 50 µg/mL
C[C@H](CCC(=O)NCCNCCNC(=O)CC[C@@H](C)[C@H]1CCC2C3CCC4C[C@H](O)CC[C@]4(C)C3C[C@H](C)[C@@]21O)[C@H]1CCC2C3CCC4C[C@H](O)CC[C@]4(C)C3C[C@H](C)[C@@]21O | Isolate 1 | - | 0.012 µM
Cc1c(N2C[C@@H]3C(N)[C@@H]3C2)c(F)cn2c(=O)c(C(=O)O)cc(C3CC3)c12 | CCH442 | - | >100 µg/mL
Cc1c(SCCN)c(F)cn2c(=O)c(C(=O)O)cc(C3CC3)c12.O=C(O)C(F)(F)F | CCH442 | - | >100 µg/mL
N#Cc1ccc2oc(=O)ccc2c1 | ATCC 14053 | - | 500 µg/mL
c1ccc(CC2CCCc3cnccc32)cc1 | 2005E | - | 16 µg/mL
Cc1c(N2CCNC(C)C2)c(F)cn2c(=O)c(C(=O)O)cc(C3CC3)c12.Cl | CCH442 | - | >100 µg/mL
CC(C)(O)C1Cc2cc3ccc(=O)oc3cc2O1 | ATCC 14053 | - | 500 µg/mL

A second listing of 3 rows from above:

smiles	strain or isolate	read by	result
Cc1c(N2CC3CCC(C)(NC(=O)[C@H](C)N)C3C2)c(F)cn2c(=O)c(C(=O)O)cc(C3CC3)c12.Cl	CCH442	-	>100 µg/mL
CC[C@H]1OC(=O)C=C2C1=CC1OC(=O)[C@@]3(C)CCC[C@@]2(C)[C@@H]13	1463D	-	8 µg/mL
CC(C)(O)C1Cc2cc3ccc(=O)oc3cc2O1	ATCC 14053	-	500 µg/mL

Neighbouring rows are from separate reports.